Screening data, single-dose tests

Source: ChEMBL document CHEMBL3988442, “University of Dundee, Small-Polar-MMV Screening Library” (2021).

Mtb glucose medium: 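Whole-cell growth test on Mycobacterium tuberculosis, read after 3 days in glucose-containing 7H9 medium; the read-out is not stated. Concentration: 50 µM. Higher reads as more growth inhibition (inferred: compounds with an IC50 in retests scored well above the rest). Of about 69,000 compounds tested this way, about 760 (1.1%) reached 50% or more in at least one test.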
Mtb cholesterol medium: 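Whole-cell growth test on Mycobacterium tuberculosis, read after 4 days in a medium based on cholesterol and the lipid DPPC; the read-out is not stated. Tested at 50 µM. Higher reads as more growth inhibition (inferred: compounds with an IC50 in retests scored well above the rest). About 69,000 compounds were tested under these conditions; 0.54% (about 370) showed 50% or more at least once.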

The filed quantity is “Percent Effect” (%). The controls that fix the scale are not given in the record; negative values are as filed. The entries come from a sample that favours strong results. Two or more numbers in one place are separate tests of the same structure; such repeats can differ widely.

compound: CCNc1nc(C)c(C(=O)N(C)Cc2noc(C)n2)s1
Mtb cholesterol medium: -17.19%

compound: O=C(CCNc1ncccn1)NCCc1ccc(Cl)s1
Mtb glucose medium: -8.896%

compound: CCc1nccn1CCNC1CCN(c2nc3ccc(Cl)cc3s2)CC1
Mtb glucose medium: 77.71%
Mtb cholesterol medium: 66.07%

compound: CC(=O)Nc1nc(C)c(S(=O)(=O)NCCc2ccccn2)s1
Mtb glucose medium: -8.195%

compound: [H][C@@]12CCC(=O)N(CCC3=CCCCC3)[C@]1([H])CCN(Cc1cnn(C)c1)C2
Mtb glucose medium: 67.05%

compound: CS(=O)(=O)C1CCN(S(=O)(=O)c2ccc(F)c(F)c2)C1 (configuration not stated)
Mtb glucose medium: 33.79%

compound: COC(=O)N1CCC(Nc2cccc(F)c2C#N)CC1
Mtb glucose medium: 25.3%
Mtb cholesterol medium: 0.2017% & -5.62%

compound: CCO[C@@H]1CO[C@@]2(CCN(Cc3ccc4c(c3)OCO4)C2)C1.O=C(O)C(F)(F)F
Mtb cholesterol medium: 12.96%

compound: CN(C)c1ncc2c(n1)C1(CCN(Cc3ccccc3F)C1)COC2.O=C(O)C(F)(F)F (configuration not stated)
Mtb glucose medium: 32.91% & 2.397%

compound: Cc1ccc(N2Cc3cnn(Cc4ccc(F)cc4)c3C2)nn1
Mtb cholesterol medium: 13.52% & 16.91%

compound: CC(C)Cc1cc(NC(=O)c2cc(Cl)c[nH]2)n(C)n1
Mtb glucose medium: 56.99%

compound: Cn1cc(-c2cnc(-c3ccnn3C)nc2)cc1C(=O)NC1CC1
Mtb glucose medium: 26.28%

compound: O=C(NCCn1ccnc1)c1ccn(-c2ccccc2)n1
Mtb glucose medium: -16.45%
Mtb cholesterol medium: -28.6%

compound: CCNc1cc2c(nn1)CCN(C(=O)c1cccc3c1OCCO3)C2
Mtb glucose medium: 14.63%

compound: Cc1ncoc1C(=O)N1CCOC(CCCC(C)C)C1 (configuration not stated)
Mtb glucose medium: 10.76% & 2.226%

compound: NCCn1nc(C2CCN(C(=O)Cc3ccccc3)C2)c2nccnc21 (configuration not stated)
Mtb cholesterol medium: 58.99%

compound: COCCC1(CNC(=O)Nc2ccc(-n3ccnn3)cc2)CCC1
Mtb glucose medium: 50.67%

compound: CC(=O)N1CCCC(c2ccc(Br)cn2)C1 (configuration not stated)
Mtb glucose medium: -3.258%
Mtb cholesterol medium: -15.61%

compound: O=C(CCc1ccc(Br)cc1)NCCc1nnc[nH]1
Mtb glucose medium: 3.313% & 123%

compound: CCOc1nn(CC)cc1-c1nnc(SCc2ccccn2)n1C
Mtb glucose medium: -6.524% & 86.25%

compound: CCc1nc(NS(=O)(=O)c2ccc(C)cc2Cl)no1
Mtb glucose medium: -2.365%

compound: C[C@@H]1CN(Cc2nnc(-c3cccnc3)o2)CC[C@]1(C)O
Mtb glucose medium: -26.72%

compound: O=C(CCc1ccc(Br)cc1)NCc1nnc[nH]1
Mtb glucose medium: -4.847% & 5.551%

compound: CC(=O)N1CCC(CSCc2ccco2)CC1
Mtb glucose medium: 1.972%

compound: COc1cc(C(=O)Nc2nc(C)no2)ccc1OC1CCCC1
Mtb glucose medium: -14.03%

compound: Cc1c(Br)cccc1C(=O)NCc1cnn(C)c1
Mtb glucose medium: -28.57%

compound: CCc1noc(CNc2ccc(F)cc2OCC2CC2)n1
Mtb glucose medium: 18.92%

compound: CCCNC(=O)CNc1cc(C(=O)NCC(F)(F)F)cc(F)c1C
Mtb glucose medium: -7.13%
Mtb cholesterol medium: -10.78% & 5.1%

compound: Cn1ccnc1CN(Cc1ccccn1)Cc1ccccc1Cl.O=C(O)CC(O)(CC(=O)O)C(=O)O
Mtb glucose medium: 74.57%

compound: CC(Oc1ccc2c(c1)OCO2)C(=O)N1CCC(N2CCCC2)CC1 (configuration not stated)
Mtb glucose medium: 5.198%

compound: CC(C)c1cc(C(=O)NC2CCN(CC(N)=O)CC2)nn1C(C)(C)C
Mtb glucose medium: 6.784%

compound: CNCc1cc(F)ccc1Oc1ccc(Cl)cc1
Mtb glucose medium: 1.521%
Mtb cholesterol medium: -5.799%

compound: COc1cc(C)c(CN2CCc3nc4ccsc4c(=O)n3CC2)cc1C
Mtb glucose medium: 0.8756%
Mtb cholesterol medium: -17.03%

compound: CCN(Cc1c(F)cccc1Cl)c1cc(C2CCNCC2)nc(C)n1
Mtb glucose medium: 63.18%

compound: Cc1nn(C)c(Cl)c1C1CCCN1C(=O)c1ccc(N(C)C)nn1 (configuration not stated)
Mtb glucose medium: 3.673% & -6.834%

compound: CN(C(=O)Cn1nnnc1C(C)(C)C)c1ccccc1
Mtb glucose medium: 5.804%

compound: O=C(COC1CCCC1)NCCc1nc(-c2ccccn2)cs1
Mtb glucose medium: 14.91%

Repeated from the top, 4 entries:

{"compound": "CCNc1nc(C)c(C(=O)N(C)Cc2noc(C)n2)s1", "Mtb cholesterol medium": -17.19}
{"compound": "O=C(CCNc1ncccn1)NCCc1ccc(Cl)s1", "Mtb glucose medium": -8.896}
{"compound": "CCc1nccn1CCNC1CCN(c2nc3ccc(Cl)cc3s2)CC1", "Mtb glucose medium": 77.71, "Mtb cholesterol medium": 66.07}
{"compound": "CC(=O)Nc1nc(C)c(S(=O)(=O)NCCc2ccccn2)s1", "Mtb glucose medium": -8.195}